Assay results as given in ChEMBL document CHEMBL3286128 (J Med Chem, 2014).

Target: Human immunodeficiency virus type 1 integrase (Human immunodeficiency virus 1, UniProt Q7ZJM1)
Assay: Inhibition of strand transfer activity of HIV-1 integrase using [gamma-32P]-labeled DNA as substrate
Procedure, shortened: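 Gel-based assay with radiolabelled oligonucleotide substrate and Mg2+ cofactor, measuring strand transfer by recombinant HIV-1 integrase. IC50 determined.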

Row | Structure (SMILES) | IC50 [µM]
1 | COC(=O)[C@@H](Nc1c(C(=O)NCc2ccc(F)cc2F)c(=O)n(O)c2ncccc12)c1ccccc1 | 0.01
2 | COC(=O)[C@H](C)Nc1c(C(=O)NCc2ccc(F)cc2F)c(=O)n(O)c2ncccc12 | 0.017
